## Results of single-concentration screens

Data taken from ChEMBL document CHEMBL3988442, “University of Dundee, Small-Polar-MMV Screening Library” (2021).

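Whole-cell growth test on Mycobacterium tuberculosis, read after 4 days in a medium based on cholesterol and the lipid DPPC; the read-out is not stated. Tested at 500 µM. Direction is inferred from retests: higher values go with more growth inhibition. About 18,000 compounds were tested under these conditions; 5% (about 900) showed 50% or more at least once.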

Results are given as percent effect. How 0% and 100% were set is not recorded. Most values in the screen are low, and negative values occur. Many other results are left out here, so strong results are more common than in the screen.

CN(C)CCNC(=O)c1ccc(F)cc1 gave 7.321%.
NC(C(=O)N1CCOC2(CCC2)C1)c1ccccc1 (centres unmarked) gave -4.572%.
CNC(C)(CO)c1ccccc1 (centres unmarked) gave 8.51%.
CN(C)c1ncc(CNC(=O)C2CC2)n1C gave 19.35%.
CCc1noc(CN2CCC(CC(N)=O)CC2)n1 gave -5.338%.
CN(Cc1ncc[nH]1)c1cc(C2CC(N)C2)nc(N)n1 (centres unmarked) gave -15.41%.
COC(=O)c1oc(CSc2cnn[nH]2)cc1C gave 35.79%.
COCCC(CO)NC(=O)NCc1cc(Cl)ccc1C (centres unmarked) gave 11.21%.
NCc1ccc(OCC2CC2)nc1 gave 30.4%.
CC(C)(C)O[C@H]1C[C@H](N)C1 gave -7.159%.
NC1CCCc2sccc21 (centres unmarked) gave 10.76%.
CCOC(=O)N1CCN(C(=O)c2ccccc2O)CC1 gave 18.5%.
O=C(CSc1ccc(F)cc1)N1CCC1 gave 60.58%.
CCC(=O)c1cccc(OC)n1 gave -2.695%.
O=C(c1cc(C2CC2)on1)N1CCC2(CCOCC2)C1 gave 45.58%.
Cc1cc(C)c(CN2CCOC(CN)C2)cc1C (centres unmarked) gave 77.75%.
Cn1ncc(CNC(=O)Nc2ccccn2)c1N gave 8.59%.
Cc1cncc(CN)c1 gave -7.047%.
O=C(NCCNC(=O)c1ccccc1)C1=CCC1 gave 8.122%.
c1cn(C2CCNC2)nn1 (centres unmarked) gave 1.959%.
O=C(CN1CCCC1=O)NCCc1cccnc1 gave -22.4%.
CCC(c1ccc(OC)cc1)N(C)CCO (centres unmarked) gave 7.224%.
O=C(NCCO)c1ccc(-c2ccccc2)cc1 gave 7.412%.
N[C@@H]1C[C@H](O)[C@H]1n1cccn1 gave 5.182%.
Cc1ccccc1C(=O)N1CCC2(CC1)OCC(C)O2 (centres unmarked) gave 10.8%.
CN(CCOCc1ccccc1)C(=O)c1cc[nH]n1 gave 11.9%.
CC1CN=C(N2CCN(c3ccc(C#N)cn3)CC2)S1 (centres unmarked) gave -5.946%.
Cc1cc(CS(=O)(=O)C(C)C(=O)NC2CC2)on1 (centres unmarked) gave -23.74%.
Cc1csc(CCN)n1 gave 35.08%.